Anti-infective test results gathered from many reports (values: NIAID ChemDB through PubChem).

All rows: whole-cell or culture tests; organism: Human cytomegalovirus

Lines come from different laboratories, so protocols vary.

SMILES	endpoint	read by	cells	strain	result
CCCCCOc1nc(N)nc2c1ncn2/C=C1/C[C@@H]1CO	EC50	plaque count	HFF	-	1.4 µM
COC(c1cn([C@H]2C[C@H](O)[C@@H](CO)O2)c(=O)[nH]c1=O)C(Cl)I	EC50	plaque count	HFF	AD169	>214 µM
Nc1ncnc2c1ncn2C=C1CC1CO	EC50	plaque count	-	VR4990 (ganciclovir-resistant)	3.9 µM
C=CCOc1nc(N)nc2c1ncn2/C=C1/C[C@@H]1CO	EC50	plaque count	HFF	-	2.1 µM
Nc1nc2c(ncn2COC(CO)CO)c(=O)[nH]1	EC50	plaque count	HFF	TOWNE	1.5 µM
C=C[C@@](C)(CO)CCn1cnc2c(N)ncnc21	EC50	-	-	-	>100 µg/mL
OC[C@H]1CC(n2cnc3c(NC4CC4)ncnc32)C[C@@H]1CO	EC50	-	HEL	AD169	>100 µg/mL
Nc1nc(N)c2ncn(C[C@H]3CC[C@@H](P(=O)(O)O)O3)c2n1	EC50	plaque count	WI-38	-	>50 µg/mL
O=c1[nH]c(=O)n([C@H]2C[C@H](O)[C@@H](CO)O2)cc1C(O)C(Cl)Cl	EC50	plaque count	HFF	AD169	>294 µM
C#CCNc1nc(N)nc2c1ncn2/C=C1/C[C@@H]1CO	EC50	plaque count	HFF	-	2.6 µM
Nc1n[nH]c(=O)c2c1ccn2[C@@H]1O[C@H](CO)[C@@H](O)[C@@H]1O	EC50	plaque count	-	TOWNE	>100 µM
CC(C)Nc1ncnc2c1ncn2C1C[C@H](CO)[C@@H](CO)C1	EC50	-	HEL	AD169	>100 µg/mL
CN(C)c1cccc2c(S(=O)(=O)Nc3ccc(NC(=O)C(C)(C)CO)cc3)cccc12	EC50	plaque count	-	DAVIS	0.52 µM
Nc1nc2c(ncn2COC(CO)CO)c(=O)[nH]1	EC50	plaque count	-	D16 (DHPG-R)	44 µM
C=C1[C@H](CO)[C@@H](O)C[C@@H]1n1cnc2c(=O)[nH]c(N)nc21	EC50	plaque count	WI-38	-	75 µM
Nc1nc(N)c2ncn(C[C@@H]3CC[C@@H](P(=O)(O)O)O3)c2n1	EC50	plaque count	WI-38	-	>10 µg/mL
Nc1nc2c(ncn2COC(CO)CO)c(=O)[nH]1	EC50	plaque count	HFF	-	3.9 µM
Nc1nc(N)c2ncn(C[C@@H]3CC[C@H](P(=O)(O)O)O3)c2n1	EC50	plaque count	WI-38	-	>10 µg/mL
CC[Si]1(C(C)C)O[C@H]2[C@@H](O)[C@H](c3ccccc3)O[C@@H]2CO[Si](C(C)C)(C(C)C)O1	EC50	plaque count	HEL	AD169	1.2 µg/mL
Nc1nc2ncn(/C=C3/C(F)C3(CO)CO)c2c(=O)[nH]1	EC50	cytopathic effect	HFF	AD169	>300 µM
Nc1nc2c(ncn2C[C@@H]2CC[C@H](P(=O)(O)O)O2)c(=O)[nH]1	EC50	plaque count	MRC-5	-	1.6 µg/mL
OC[C@H]1O[C@@H](n2c(Br)nc3cc(Cl)c(Cl)cc32)[C@H](O)[C@@H]1O	EC50	virus yield	HFF	TOWNE	<0.9 µM
CC(C)(C)[Si](C)(C)OC[C@H]1O[C@@H](n2ccc3nc(CN)cn3c2=O)[C@H](O[Si](C)(C)C(C)(C)C)[C@@H]1O[Si](C)(C)C(C)(C)C	EC50	cytopathic effect	HEL	AD169	7.3 µM
Nc1nc2c(ncn2COC(CO)CO)c(=O)[nH]1	EC50	plaque count	HFF	-	0.16 µg/mL
OC[C@H]1O[C@@H](c2ccccc2)[C@H](O)[C@@H]1O	EC50	plaque count	HEL	DAVID	>50 µg/mL
Nc1cn(C=C2C[C@H]2CO)c(=O)[nH]c1=O	EC50	cytopathic effect	HFF	AD169	>518 µM
COc1cc2oc(-c3ccccc3)cc(=O)c2c(OC)c1OC	EC50	plaque count	MRC-5	TOWNE	8 µg/mL
O=c1ccn([C@@H]2C[C@H](CO)C[C@H]2CO)c(=O)[nH]1	EC50	-	HEL	AD169	>100 µg/mL
COC(=O)C(C)NP(=O)(OC[C@@H]1C/C1=C\n1cc(C)c(=O)[nH]c1=O)Oc1ccccc1	EC50	plaque count	HFF	TOWNE	>100 µM
Nc1nc2c(ncn2COC(CO)CO)c(=O)[nH]1	EC50	plaque count	-	25 isolates	3.51 µM
Nc1nc2c(ncn2COC(CO)CO)c(=O)[nH]1	EC90	virus yield	HFF	2916R (1263W94-resistant)	1 µM
COC(c1cn([C@H]2C[C@H](O)[C@@H](CO)O2)c(=O)[nH]c1=O)C(I)I	EC50	plaque count	HFF	AD169	>186 µM
NC[C@H]1C[C@@H](n2cnc3c(N)ncnc32)[C@H](O)[C@@H]1O	EC50	cytopathic effect	HFF	-	17.5 µg/mL
CCCCOC[C@H]1O[C@@H]2CC(C)(C)C[C@@H]2[C@H]1OCCCC	EC50	plaque count	HEL	AD169	10.5 µg/mL
CNc1cccc2c(S(=O)(=O)Nc3ccc(NC(=O)C(C)(C)CF)cc3)cccc12	EC50	plaque count	-	Ganciclovir-resistant	3.4 µM
CC(=O)OCC(CO)OCn1cnc2c(=O)[nH]c(N)nc21	EC50	plaque count	HFF	-	1.2 µg/mL
C=CCNc1nc(N)nc2c1ncn2/C=C1/C[C@@H]1CO	EC50	plaque count	HFF	-	2.8 µM
CSc1nc2cnsc2n1[C@@H]1O[C@H](CO)[C@@H](O)[C@@H]1O	EC50	plaque count	HFF	TOWNE	100 µM
COC(=O)C(C)NP(=O)(OC[C@@H]1C/C1=C/n1cc(N)c(=O)[nH]c1=O)Oc1ccccc1	EC50	cytopathic effect	HFF	AD169	29.8 µM

Again, the opening 5 rows:

SMILES	endpoint	read by	cells	strain	result
CCCCCOc1nc(N)nc2c1ncn2/C=C1/C[C@@H]1CO	EC50	plaque count	HFF	-	1.4 µM
COC(c1cn([C@H]2C[C@H](O)[C@@H](CO)O2)c(=O)[nH]c1=O)C(Cl)I	EC50	plaque count	HFF	AD169	>214 µM
Nc1ncnc2c1ncn2C=C1CC1CO	EC50	plaque count	-	VR4990 (ganciclovir-resistant)	3.9 µM
C=CCOc1nc(N)nc2c1ncn2/C=C1/C[C@@H]1CO	EC50	plaque count	HFF	-	2.1 µM
Nc1nc2c(ncn2COC(CO)CO)c(=O)[nH]1	EC50	plaque count	HFF	TOWNE	1.5 µM

An empty or dashed field is not shown. ECn is the concentration giving n% inhibition of infection, replication or growth.